Data from US20110002859A1, “CHEWING GUM CONTAINING EUCALYPTUS EXTRACT” (LOTTE CO., LTD., priority 2008, published 2011).

The compounds below were run on periodontopathic bacteria (assay: Minimum compounding concentration for antibacterial activity in saliva). Conditions: from Tables 2 to 4, antibacterial activity in saliva.

Compound	appropriate minimum compounding concentration in chewing gum [% by weight]
CC(C)C[C@@H](c1c(O)c(C=O)c(O)c(C=O)c1O)[C@@]1(C)CC[C@@H]2[C@@H]1[C@H]1[C@@H](CC[C@@]2(C)O)C1(C)C [Macrocarpal A, macrocarpal A]	0.001
CC(C)C[C@H](c1c(O)c(C=O)c(O)c(C=O)c1O)[C@@]1(C)CC[C@@H]2[C@@H]1[C@H]1[C@@H](CC[C@@]2(C)O)C1(C)C [Macrocarpal B, macrocarpal B]	0.003
C=C1CC[C@@H]2[C@H]([C@H]3[C@H]1CC[C@]3(C)[C@@H](CC(C)C)c1c(O)c(C=O)c(O)c(C=O)c1O)C2(C)C [Macrocarpal C, macrocarpal C]	0.0015
